Pooled drug test results. Numbers come from NIAID ChemDB, via PubChem.

Shared fields: whole-cell or culture tests; agent: Mycobacterium tuberculosis

Inhibition is in % at the dose shown (toxicity tests: loss of growth or viability).

structure,strain,cell line,method,endpoint,dose,value
NNC(=O)c1ccccc1Cl,,,,MIC,,40 µg/mL
O=C(N/N=C/c1ccc2c(c1)OCO2)C(=O)N/N=C/c1ccc2c(c1)OCO2,H37Rv,,BACTEC,inhibition,12.5 µg/mL,-9%
CC1COc2c(N3CCN(C)CC3)c(F)cc3c(=O)c(C(=O)O)cn1c23,891868,,,MIC,,1 µg/mL
Cc1cc(=O)n(-c2ccccc2)c(=S)n1-c1nc2ccccc2[nH]1,H37Rv,,resazurin,inhibition,6.25 µg/mL,58%
CC[C@@H](CO)NCCN[C@@H](CC)CO,MDR8,,broth dilution / resazurin,MIC,,64 µg/mL
C=CCCCCn1c2ccccc2c2c(C)c3cnccc3c(C)c21,H37Rv,VERO,resazurin,MIC,,0.78 µg/mL
CO[C@H]1/C=C/O[C@@]2(C)Oc3c(C)c(O)c4c(=O)c(c5oc6cc(N7CCN(CC(C)C)CC7)cc(=O)c6nc5c4c3=C2O)NC(=O)/C(C)=C\C=C\[C@H](C)[C@H](O)[C@@H](C)[C@@H](O)[C@@H](C)[C@H](OC(C)=O)[C@@H]1C,TN1595,,,MIC,,4 µg/mL
O=C(N/N=C/c1ccc([N+](=O)[O-])cc1)c1ccccc1,,,,MIC,,1 µg/mL
CCc1cc(C(N)=S)ccn1,H37Ra,,,Mean MIC,,2.97 µg/mL
O=C(O)c1cc(Cl)c(Cl)c(Cl)c1Cl,H37Rv,,,MIC,,25 µg/mL
C[C@H]1COc2c(N3CCN(C)CC3)c(F)cc3c(=O)c(C(=O)O)cn1c23,11S,,,MIC,,0.5 µg/mL
OCC(O)c1ccccc1,H37Rv,,,MIC,,>100 µg/mL
CCOC(=O)Nc1cc2nc(C)c(C(C)c3ccc(OC)cc3)nc2c(N)n1,H37Rv,,,inhibition,12.5 µg/mL,66%
O=c1oc2cc(Cl)ccc2c(=O)n1-c1ccc(F)cc1,CNCTC MY331/88,,,MIC,,8 µM
COC(=O)C(C=Nc1ccccc1)C(=O)Nc1cccc(Cl)c1,H37Rv,,,MIC,,>100 µg/mL
COc1ccc2[nH]cc(CCNCCNCc3cccc(C)c3)c2c1,,,,MIC,,50 µM
CCOCC(O)CNCCN,H37Rv,,,MIC,,>100 µg/mL
NC(=O)c1cnccn1,Isolate 11743 monodrug-resistant,,,MIC,,>300 µg/mL
Cc1ccc(C(=O)O)c(O)c1,H37Rv,,,MIC,,>100 µg/mL
O=C(/C=C/c1ccccc1Br)c1ccccc1O,,,,EC50,,<12.5 µg/mL
NC(=S)Nn1c(=O)c2ccccc2c2ccccc2c1=O,H37Rv,,BACTEC,inhibition,12.5 µg/mL,-6%
CN(C)c1ccc(O)c2c1C[C@H]1C[C@H]3[C@H](N(C)C)C(=O)C(C(N)=O)=C(O)[C@@]3(O)C(=O)C1=C2O,H37Ra,,,Mean MIC,,0.88 µg/mL
Cc1ccc(C(=O)c2ccccc2C(=O)O)cc1N,H37Rv,,,MIC,,>100 µg/mL
CC(=O)NCCc1nc(-c2nc(C(=O)NCCC(C)C)cs2)cs1,H37Rv,,BACTEC,MIC,,≥12.8 µg/mL
COC(=O)CCCCC(=O)Nc1ccc(I)cc1I,H37Rv,,,MIC,,>100 µg/mL
O=C(NO)c1ccccc1,,,,MIC,,>200 µg/mL
CC(=O)NC[C@H]1CN(c2ccc(N3CCOCC3)c(F)c2)C(=O)O1,9S,,,MIC,,0.5 µg/mL
CC(CNCCC(c1ccccc1)c1ccccc1)N[C@@H]1C[C@@H]2C[C@H]([C@H]1C)C2(C)C,,,,MIC,,50 µM
COCN1CCN(COC)C1=O,H37Rv,,,MIC,,>100 µg/mL
N#C/C(=C1\Sc2c(nc[nH]c2=O)N1c1ccccc1)c1nc2ccccc2[nH]1,H37Rv,,resazurin,MIC bound,,>6.25 µg/mL
CC1COc2c(N3CCN(C)CC3)c(F)cc3c(=O)c(C(=O)O)cn1c23,ATCC35838,,,MIC,,0.25 µg/mL
CCOC(=O)Nc1cc(N)c2c(c1)N[C@@H](C)C(c1ccccc1)=N2,H37Rv,,,inhibition,12.5 µg/mL,43%
COc1ccc(C2Oc3ccccc3C(=O)C2O)cc1,,,,EC50,,>12.5 µg/mL
COC(=O)c1ccccc1N=NC(C#N)C(N)=O,H37Rv,,BACTEC,inhibition,12.5 µg/mL,14%
CCOC(=O)c1c(-c2ccccc2)[nH]c2ccc(OC)cc2c1=O,H37Rv,,,MIC,,>100 µg/mL
Nc1ccc(N=Nc2ccc(N=Nc3ccc(N=Nc4cc(S(=O)(=O)O)c5ccccc5c4O)c4ccc(S(=O)(=O)O)cc34)c3ccc(S(=O)(=O)O)cc23)cc1,H37Rv,,BACTEC,MIC,,≥128 µg/mL
OCCc1ccccn1,H37Rv,,,MIC,,>100 µg/mL
CC(C)c1ccc2c(c1)CC[C@H]1[C@](C)(CNCCNCC(O)CO)CCC[C@]21C,,,,MIC,,50 µM
C=CCNCC,H37Rv,,,MIC,,>100 µg/mL
CN(C)c1ccc(/C=C/C(=O)c2ccccn2)cc1,,,,EC50,,>12.5 µg/mL
CCOC(=O)CC/C(C)=N/NC(=O)c1ccc[n+](C)c1.Cc1ccc(S(=O)(=O)O)cc1,H37Rv,,BACTEC,MIC bound,,>12.5 µg/mL
CCCCC(=O)Oc1ccc(C2=Nc3c(cc(NC(=O)OCC)nc3N)N[C@H]2C)cc1,H37Rv,,,EC50,,>12.5 µg/mL
NC[C@H]1O[C@H](O[C@H]2[C@H](O)[C@@H](O[C@H]3O[C@H](CO)[C@@H](O)[C@H](N)[C@H]3O)[C@H](N)C[C@@H]2N)[C@H](N)C[C@@H]1O,H37Rv,,,Median MIC,,8 µg/mL
O=C(NNCc1ccco1)c1ccccc1,,,,MIC,,100 µg/mL
COC(=O)Nc1cnc(C(=O)O)c(C)c1-c1ccc(OC)c(OC)c1OCc1ccccc1,H37Rv,,BACTEC,MIC bound,,>12.5 µg/mL
CC(=O)Nc1cccc(/C=C/C(=O)c2ccccc2O)c1,,,,inhibition,12.5 µg/mL,0%
CC(C)=NNS(=O)(=O)c1ccc(-c2ccc(S(=O)(=O)NN=C(C)C)cc2)cc1,,,,MIC,,>40 µg/mL
NNC(=O)c1ccncc1,9120,,,MIC,,≥0.2 µg/mL
CCOC(=O)Nc1cc(N/N=C/c2ccccc2)c2[nH]c(SCc3ccccc3)nc2n1,H37Rv,,,EC50,,<12.5 µg/mL
CCOP(=O)(Oc1ccccc1I)Oc1ccccc1I,H37Rv,,,MIC,,>100 µg/mL
CC(=O)Nc1ncnc2c1ncn2C1OC(COC(C)=O)C(NC(=O)C(F)(F)F)C1OC(C)=O,H37Rv,,BACTEC,MIC bound,,>12.5 µg/mL
CC[C@H]1OC(=O)[C@H](C)[C@@H](O[C@H]2C[C@@](C)(OC)[C@@H](O)[C@H](C)O2)[C@H](C)[C@@H](O[C@@H]2O[C@H](C)C[C@H](N(C)C)[C@H]2O)[C@](C)(OC)C[C@@H](C)C(=O)[C@H](C)[C@@H](O)[C@]1(C)O,H37Rv,,,Median MIC,,8 µg/mL
CCOC(=O)c1ccc(-n2c(=O)oc3ccc(OC)cc3c2=O)cc1,CNCTC MY331/88,,,MIC,,16 µM
C[C@H]1C[C@H](N)CN1c1cc2c(cc1F)c(=O)c(C(=O)O)cn2-c1ccc(F)cc1F,ATCC 35827,,,MBC,,8 µg/mL
COc1ccc2c(c1)CCC1=C2C=C[P+]1(C)C,H37Rv,,resazurin,inhibition,6.25 µg/mL,85%
Nc1c(N=Nc2ccc(Cc3ccc(N=Nc4c(O)ccc5ccccc45)cc3)cc2)cc(S(=O)(=O)[O-])c2ccccc12.[Na+],H37Rv,,,MIC,,>100 µg/mL
COc1ccc(CSC(=S)Nc2ccc(N=Nc3ccccc3)cc2)cc1,H37Rv,,BACTEC,inhibition,128 µg/mL,93%
CC[C@H]1OC(=O)[C@H](C)[C@@H](O[C@H]2C[C@@](C)(OC)[C@@H](O)[C@H](C)O2)[C@H](C)[C@@H](O[C@@H]2O[C@H](C)C[C@H](N(C)C)[C@H]2O)[C@](C)(O)C[C@@H](C)C(=O)[C@H](C)[C@@H](O)[C@]1(C)O,ATCC 35827,,,MIC,,>8 µg/mL
CCN(CC)c1ccc(C=O)cc1,H37Rv,,,MIC,,>100 µg/mL
CO[C@H]1/C=C/O[C@@]2(C)Oc3c(C)c(O)c4c(O)c(c5c(c4c3C2=O)NC2(CCN(CC(C)C)CC2)N=5)=NC(=O)/C(C)=C\C=C\[C@H](C)[C@H](O)[C@@H](C)[C@@H](O)[C@@H](C)[C@H](OC(C)=O)[C@@H]1C,Isolate 900240 drug-susceptible,,,MIC,,0.063 µg/mL
Nc1cc(S(=O)(=O)O)ccc1O,H37Rv,,,MIC,,>100 µg/mL
C[C@@H]1CN(c2c(F)c(N)c3c(=O)c(C(=O)O)cn(C4CC4)c3c2F)C[C@H](C)N1,ATCC 35820,,,MBC,,0.06 µg/mL
CC(CCc1ccccc1)NCCNC(C)Cc1c[nH]c2ccccc12,,,,MIC,,50 µM
Cc1cc2nc3[nH]c4c(Cl)cc(Cl)cc4c3nc2cc1C,H37Rv,,BACTEC,inhibition,12.5 µg/mL,22%
CCCCCCCCCCCCCCCCCCNCCNC1C2CC3CC(C2)CC1C3,,,,MIC,,50 µM
CCC(CN(C)C)C(=O)c1ccccc1,H37Rv,,,MIC,,>100 µg/mL
O=c1oc2ccccc2c(=O)n1-c1cccc(F)c1,CNCTC MY331/88,,,MIC,,62 µM
CC[C@H]1OC(=O)[C@H](C)[C@@H](O[C@H]2C[C@@](C)(OC)[C@@H](O)[C@H](C)O2)[C@H](C)[C@@H](O[C@@H]2O[C@H](C)C[C@H](N(C)C)[C@H]2O)[C@](C)(OC)C[C@@H](C)C(=O)[C@H](C)[C@@H](O)[C@]1(C)O,84396,,,MIC,,>4 µg/mL
O=c1oc2ccc(Cl)cc2c(=O)n1-c1ccc(Cl)c(Cl)c1,CNCTC MY331/88,,,MIC,,4 µM
O=C(Nc1ccc(Cl)cc1)Nc1nnc2nc(C(C(=O)c3ccc(Cl)cc3Cl)c3nc4nnc(NC(=O)NC5C=CC(Cl)=CC5)n4[nH]c3=O)c(=O)[nH]n12,H37Rv,,BACTEC,MIC bound,,>12.5 µg/mL
O=C(O)/C(=C\c1ccc2c(c1)OCO2)NC(=O)c1ccccc1,H37Rv,,,MIC,,>100 µg/mL
COC(=O)[C@@H]1CC(O)CN1C(=O)c1c2nc3c(C(=O)N4CC(O)C[C@H]4C(=O)OC)ccc(C)c3oc-2c(C)c(=O)c1N,H37Rv,,BACTEC,inhibition,12.5 µg/mL,0%
O=C1c2ccccc2OC(c2ccccc2)C1O,,,,EC50,,>12.5 µg/mL
COC(=O)C1=CO[C@@H](OC2OC(CO)C(O)C(O)C2O)[C@@H]2[C@H](C)[C@@H](O)[C@@H](O)[C@]12O,H37Rv,,BACTEC,MIC,,≥12.5 µg/mL
CO[C@H]1/C=C/O[C@@]2(C)Oc3c(C)c(O)c4c(O)c(c5c(c4c3C2=O)NC2(CCN(CC(C)C)CC2)N=5)=NC(=O)/C(C)=C\C=C\[C@H](C)[C@H](O)[C@@H](C)[C@@H](O)[C@@H](C)[C@H](OC(C)=O)[C@@H]1C,Strain 65 66,,,MIC,,0.03 µg/mL
O=S(=O)(c1ccc(Br)cc1)c1ccc(Br)cc1,H37Rv,,,MIC,,>100 µg/mL
CC(CNCCC(c1ccccc1)c1ccccc1)NC[C@@H]1CC[C@H]2C[C@@H]1C2(C)C,,,,MIC,,12.5 µM
O=C(O)Cc1cccc2ccccc12,H37Rv,,,MIC,,100 µg/mL
COc1ccc(C2Oc3ccc(Br)cc3C(=O)C2O)cc1,,,,inhibition,12.5 µg/mL,24%
CC(=O)Nc1ccc(/C=N/NC(=S)NC2CN3CCC2CC3)cc1,H37Rv,,BACTEC,inhibition,12.5 µg/mL,8%
CCOC(=O)Nc1cc2nc(C)c(-c3cccc(N)c3)nc2c(N)n1,H37Rv,,,EC50,,>12.5 µg/mL
CCN(CC)CC(C)OC(=O)c1ccc(N)cc1,H37Rv,,,MIC,,>100 µg/mL
Cc1nc2c(n1C)C(=O)c1ccccc1C2=O,H37Rv,,resazurin,MIC bound,,>6.25 µg/mL
COc1ccccc1CCNCCN1CC2(C)CC1CC(C)(C)C2,,,,MIC,,50 µM
CN1CC[C@]23c4ccccc4N[C@@H]1[C@]21CCN(C)[C@@H]3Nc2ccccc21,H37Rv,,BACTEC,inhibition,12.8 µg/mL,10%
CCOC(=O)Nc1cc(NC(c2ccccc2)c2ccccc2)c2nc(-c3ccc(Cl)cc3)cnc2n1,H37Rv,,,inhibition,12.5 µg/mL,0%

For reference, 9 entries again:

NC(=O)c1cnccn1 ; strain: Isolate 11743 monodrug-resistant ; endpoint: MIC ; value: >300 µg/mL
CC(=O)Nc1cccc(/C=C/C(=O)c2ccccc2O)c1 ; endpoint: inhibition ; dose: 12.5 µg/mL ; value: 0%
CC[C@@H](CO)NCCN[C@@H](CC)CO ; strain: MDR8 ; method: broth dilution / resazurin ; endpoint: MIC ; value: 64 µg/mL
CC(C)c1ccc2c(c1)CC[C@H]1[C@](C)(CNCCNCC(O)CO)CCC[C@]21C ; endpoint: MIC ; value: 50 µM
Cc1ccc(C(=O)O)c(O)c1 ; strain: H37Rv ; endpoint: MIC ; value: >100 µg/mL
COC(=O)Nc1cnc(C(=O)O)c(C)c1-c1ccc(OC)c(OC)c1OCc1ccccc1 ; strain: H37Rv ; method: BACTEC ; endpoint: MIC bound ; value: >12.5 µg/mL
CC[C@H]1OC(=O)[C@H](C)[C@@H](O[C@H]2C[C@@](C)(OC)[C@@H](O)[C@H](C)O2)[C@H](C)[C@@H](O[C@@H]2O[C@H](C)C[C@H](N(C)C)[C@H]2O)[C@](C)(O)C[C@@H](C)C(=O)[C@H](C)[C@@H](O)[C@]1(C)O ; strain: ATCC 35827 ; endpoint: MIC ; value: >8 µg/mL
O=C1c2ccccc2OC(c2ccccc2)C1O ; endpoint: EC50 ; value: >12.5 µg/mL
COc1ccccc1CCNCCN1CC2(C)CC1CC(C)(C)C2 ; endpoint: MIC ; value: 50 µM

An empty or dashed field is not shown. Neighbouring rows are from separate reports. ECn is the concentration giving n% inhibition of infection, replication or growth. MIC bound: limit read from a one-dose screen.